Usually Cmax stands for the highest concentration seen after dosing.

The source of these data is paper PMC6149971, “In Vivo and In Vitro Activities and ADME-Tox Profile of a Quinolizidine-Modified 4-Aminoquinoline: A Potent Anti-P. falciparum and Anti-P. vivax Blood-Stage Antimalarial” (Molecules : A Journal of Synthetic Chemistry and Natural …, 2017).

Certain results were filed several times, with different values. This is not the full list of results. The source may hold further records. The records of an entry do not match, cause unknown; dose, time, organism, isomer or construct need not be as stated for each record.

The data set can be described thus: Pharmacokinetics in CD-1 mice after oral administration. Type of data set: in vivo, mouse. To be noted: 10 mg/kg oral, single dose in SSV, plasma. How it is done:
Samples from the pharmacokinetic studies were analyzed under the following conditions: UPLC interfaced with a Premiere XE triple Quadrupole, Waters. A gradient from 2 to 100% (Water, MeOH, 5 mM Ammonium Acetate) over 1.3 min was used in Acquity HSS T3 (dimensions 2.1 by 50 mm, 1.8 µm column, 40 °C temperature, flow rate 0.5 mL/min). Detection was performed in MRM (ESI positive, Q1/Q3 330.16/152.00, Cone Voltage 45 V; Extractor 5 V; Capillary 3.4 kV). The limit of detection was 1 ng/mL. Pharmacokinetic parameters were determined by Non-Compartmental Analysis, using the linear trapezoidal rule and uniform weight.
Pharmacokinetic data were collected in mice by testing the racemate and the enantiomers at the same single dose, and vehicle-utilized for in vivo studies (see composition in paragraph 4.4). Briefly, male CD-1 mice (Charles River Laboratories) weighing 18–22 g received single dose (10 mg/kg) oral administrations of the AM1 racemate and single enantiomers, each dissolved in SSV. For each experiment, twenty-four mice/dose and three mice/time-point were used. Blood samples were collected at eight selected time-points (15, 30 and 60 min; 2, 4, 6, 8 and 24 h) under ethyl ether anaesthesia. […] Pharmacokinetic plasma samples (spiked with internal standard) were filtered (Sirocco filter plate, Waters) under vacuum, and 5 µL analysed by LC-MS/MS.

Consider `Clc1ccc2c(NC[C@@H]3CCCN4CCCC[C@H]34)ccnc2c1` (relative stereo), for which the Cmax was 99.6 nM and 32.78 ng/mL.
